Pooled drug test results. Numbers come from NIAID ChemDB, via PubChem.

Shared fields: whole-cell or culture tests; species: Cryptococcus neoformans; read-out: MIC

Lines come from different laboratories, so protocols vary. Blank or dashed fields: not listed here. Two numbers with a dash give a range or band.

SMILES	strain	read by	result
CN(C/C=C/c1ccccc1)Cc1cccc2ccccc12	-	-	>200 µM
C=C1/C=C(\C)[C@H](CC)OC(=O)[C@H](C)C(=O)C(O)(CO)C/C(OC)=C/[C@@H](C)C1	IAM 4772	-	0.3 µg/mL
C=C1OC(=O)c2c(OC)cc(OC)c(C)c2OC1=C	ATCC 90113	broth dilution / absorbance	>128 µg/mL
CN[C@@H]1[C@H](O[C@@H]2OC[C@@H](O)[C@H](O)[C@H]2O)[C@@H](O)[C@H](O[C@H]2c3cc(C)c(C(N)=O)c(O)c3-c3c(cc4c(c3O)C(=O)c3cc(OC)cc(O)c3C4=O)[C@@H]2O)O[C@@H]1C	IAM 4514	-	>100 µg/mL
C[C@H]1[C@@H](Oc2ccc(O)cc2)O[C@@H]2O[C@]3(C)CC[C@H]4[C@H](C)CC[C@@H]1C24OO3	ATCC 90113	-	>50 µg/mL
CCCOCCCCCCCCCC(=O)O	-	-	300 µM
Cc1ccc(NC(=O)CN(C)CC(O)Cn2c(=O)c3ccccc3n(C)c2=O)cc1	-	agar diffusion	128 µg/mL
C[C@@]12CCC[C@]3(C)C4=CC(=O)OC[C@]45O[C@@H]5C(OC1=O)[C@@H]23	ATCC90112	-	16 µg/mL
O=c1c(O)c(-c2ccc(O)c(O)c2)oc2cc(O)cc(O)c12	ATCC 208821	broth dilution	100 µg/mL
CC(CCC(O)C(C)(O)CO)C1(O)CCC2(C)C3=C(CCC21C)C1(C)CCC(OC(=O)CCC(=O)O)C(C)(C)C1CC3	MY2061	-	>64 µg/mL
Clc1ccc(-n2ncc(C(c3ccccc3)n3ccnc3)c2-c2ccccc2Cl)c(Cl)c1	-	-	≥11.1 µM
C(=C\c1ccccc1)/CN(Cc1cccc2ccccc12)n1ccnc1	-	-	>200 µM
CO[C@@H]1O[C@@H]2O[C@]3(C)CC[C@H]4[C@H](C)CC[C@@H]([C@H]1C)C24OO3	ATCC 90113	-	>50 µg/mL
CCCCCCCCCCCCCCCCCCCO	ATCC 208821	broth dilution	100 µg/mL
Cc1c(N)nc([C@H](CC(N)=O)NC[C@H](N)C(N)=O)nc1C(=O)N[C@H](C(=O)N[C@H](C)[C@@H](O)[C@H](C)C(=O)N[C@H](C(=O)NCCc1nc(-c2nc(C(=O)NCCC[S+](C)C)cs2)cs1)[C@@H](C)O)C(O[C@@H]1O[C@@H](CO)[C@@H](O)[C@H](O)[C@@H]1O[C@H]1O[C@H](CO)[C@@H](O)[C@H](OC(N)=O)[C@@H]1O)c1cnc[nH]1	Isolate 94-181	-	0.78 µg/mL
CN[C@@H]1[C@H](O[C@@H]2OC[C@@H](O)[C@H](O)[C@H]2O)[C@@H](O)[C@H](O[C@H]2c3cc(C)c(C(=O)N[C@@H](CN)C(=O)O)c(O)c3-c3c(cc4c(c3O)C(=O)c3cc(OC)cc(O)c3C4=O)[C@@H]2O)O[C@@H]1C	IAM 4514	-	>100 µg/mL
CCC(C)CC(C)CCCCCCCCC(=O)N[C@H]1C[C@@H](O)[C@H](NCCN)NC(=O)[C@@H]2[C@@H](O)CCN2C(=O)[C@H]([C@H](O)CCN)NC(=O)[C@H]([C@H](O)[C@@H](O)c2ccc(O)cc2)NC(=O)[C@@H]2C[C@@H](O)CN2C(=O)[C@H]([C@@H](C)O)NC1=O	MY2062	-	16 µg/mL
C=CCc1ccc(O)c(-c2cc(CC=C)ccc2O)c1	KCTC 7224	-	>200 µg/mL
CN[C@@H]1[C@H](O)[C@@H](O)[C@H](O[C@H]2c3cc(C)c(C(=O)N[C@H](C)C(=O)O)c(O)c3-c3c(cc4c(c3O)C(=O)c3cc(OC)cc(O)c3C4=O)[C@@H]2O)O[C@@H]1C	IAM 4514	-	1.6 µg/mL
Clc1ccc(-n2ncc(C(c3ccccc3)n3ccnc3)c2-c2ccccc2)c(Cl)c1	-	-	33.3 µM
c1ccc(CCCCCCCC[n+]2c3ccccc3cc3[nH]c4ccccc4c32)cc1	ATCC 52657	-	10 µg/mL
C1CCC([C@H]2CN3C(=NC[C@@H]3C3CCCCC3)N2CCC23CC4CC(CC(C4)C2)C3)CC1	ATCC 32045	-	8–16 µg/mL
C[C@H]1[C@@H](Oc2ccc(S)cc2)O[C@@H]2O[C@]3(C)CC[C@H]4[C@H](C)CC[C@@H]1C24OO3	ATCC 90113	-	>50 µg/mL
C1CCC(C[C@@H]2CN=C3N2C[C@@H](C2CCCCC2)N3CCC23CC4CC(CC(C4)C2)C3)CC1	ATCC 32045	-	8–16 µg/mL
COc1cc(O)c2c(c1)C(=O)c1c(cc3c(c1O)-c1c(cc(C)c(C(=O)N[C@H](C)C(=O)O)c1O)[C@H](O[C@@H]1O[C@H](C)[C@H](N)[C@H](O[C@@H]4OC[C@@H](O)[C@H](O)[C@@H]4O)[C@H]1O)[C@H]3O)C2=O	IAM 4514	-	1.6 µg/mL
Clc1ccc(COC(Cn2ccnc2)c2ccc(Cl)cc2Cl)c(Cl)c1	-	-	1 µg/mL
CCCCCCCCCCOCCC(=O)O	-	-	300 µM
CC(C)C[C@@H]1CN2C(=NC[C@H]2C2CCCCC2)N1CCC12CC3CC(CC(C3)C1)C2	ATCC 32045	-	10–16 µg/mL
c1ccc(CC[n+]2c3ccccc3cc3[nH]c4ccccc4c32)cc1	ATCC 52657	-	31.2 µg/mL
CC(C)(C)C1CCC(CN2C3=NC[C@H](C4CCCCC4)N3C[C@H]2CC2CCCCC2)CC1	ATCC 32045	-	2–4 µg/mL
CC[n+]1c2ccccc2cc2[nH]c3ccccc3c21	ATCC 52657	-	31.2 µg/mL
[Cl-].[Li+]	H99	-	>42 µg/mL
C=CC[n+]1c2ccccc2cc2[nH]c3ccccc3c21	ATCC 52657	-	31.2 µg/mL
Clc1ccc(-c2c(C(c3ccccc3)n3ccnc3)cnn2-c2ccc(Cl)cc2Cl)cc1	-	-	11.1 µM
C[C@H]1[C@@H](OC2CCC(O)CC2)O[C@@H]2O[C@]3(C)CC[C@H]4[C@H](C)CC[C@@H]1C24OO3	ATCC 90113	-	>50 µg/mL
CN[C@@H]1[C@H](O[C@@H]2OC[C@@H](O)[C@H](O)[C@H]2O)[C@@H](O)[C@H](O[C@H]2c3cc(C)c(C(=O)N[C@@H](CO)C(=O)O)c(O)c3-c3c(cc4c(c3O)C(=O)c3cc(OC)cc(O)c3C4=O)[C@@H]2O)O[C@@H]1C	IAM 4514	-	25 µg/mL
CC(C)(C)C1CCC(CN2C3=NC[C@@H](C4CCCCC4)N3C[C@H]2CC2CCCCC2)CC1	ATCC 32045	-	8–16 µg/mL
C[C@@H]1C=C2C3CCC4[C@@]5(C)CC[C@@H](O)C(C)(C)C5CC[C@@]4(C)[C@]3(C)CC[C@@]2(C(=O)O)CC1	ATCC 208821	broth dilution	>200 µg/mL
COc1cc(/C=C/[N+](=O)[O-])cc(OC)c1OC	24 isolates	-	4–16 µg/mL
O=C(C[n+]1c2ccccc2cc2[nH]c3ccccc3c21)c1ccccc1	ATCC 52657	-	62.5 µg/mL
C1CCC(C[C@@H]2CN3C(=NC[C@@H]3CC3CCCCC3)N2CCC23CC4CC(CC(C4)C2)C3)CC1	ATCC 32045	-	4–8 µg/mL
C=C(CC[C@@H](C)[C@H]1C[C@@H](O)[C@@]2(C(=O)O)C3=C(CC[C@]12C)[C@@]1(C)CC[C@H](O[C@@H]2O[C@@H](CO)[C@H](OC)[C@@H](O)[C@@H]2O)C(=C)[C@@H]1CC3)C(C)C	MY2061	-	>64 µg/mL
COc1cc(Cc2cnc(N)nc2N)cc(OC)c1OC	-	-	0.06–64 µg/mL
CN[C@@H]1[C@H](O[C@@H]2OC[C@@H](O)[C@H](O)[C@H]2O)[C@@H](O)[C@H](O[C@H]2c3cc(C)c(C(=O)N[C@H](C)C(=O)O)c(O)c3-c3c(cc4c(c3O)C(=O)c3cc(OC)cc(O)c3C4=O)[C@@H]2O)O[C@@H]1C	IAM 4514	-	0.8 µg/mL
CC(C)(C)C1CCC(CN2C3=NC[C@@H](C4CCCCC4)N3C[C@@H]2CC2CCCCC2)CC1	ATCC 32045	-	8–16 µg/mL
CC[C@H]1/C=C(\C)[C@H](O)[C@H](C)C[C@H](OC)[C@H]2O[C@@](O)(C(=O)C(=O)N3CCCC[C@H]3C(=O)O[C@H](/C(C)=C/[C@@H]3CC[C@@H](O)[C@H](OC)C3)[C@H](C)[C@@H](O)CC1=O)[C@H](C)C[C@@H]2OC	H99 ΔFRR1 mutant	-	>42 µg/mL
C=C(C)CN1CC(OCC23C[C@@H]4[C@H](C)CC[C@H]4C4(C=O)CC2C=C(C(C)C)[C@@]34C(O)O)O[C@H](C)[C@@H](O)C1	ATCC 90012	-	0.12 µg/mL
N#CC[n+]1c2ccccc2cc2[nH]c3ccccc3c21	ATCC 52657	-	31.2 µg/mL
COc1cc(O)c2c(c1)OC(c1ccc(O)cc1)CC2=O	KN99alpha	broth dilution	320 µg/mL
CCC(C)CC(C)CCCCCCCCC(=O)N[C@H]1C[C@@H](O)[C@@H](OCCN)NC(=O)[C@@H]2C[C@@H](O)CN2C(=O)[C@H]([C@H](O)CCN)NC(=O)[C@H]([C@H](O)[C@@H](O)c2ccc(O)cc2)NC(=O)[C@@H]2C[C@@H](O)CN2C(=O)[C@H]([C@@H](C)O)NC1=O	MY2061	-	16 µg/mL
CCN1C2=NC[C@@H](C3CCCCC3)N2C[C@@H]1Cc1ccccc1	ATCC 32045	-	62–125 µg/mL
OC(Cn1cncn1)(Cn1cncn1)c1ccc(F)cc1F	H99	-	6.25 µg/mL
C/C=C/C(C)=C/C(C)C(=O)CC1CC(CC(N)=O)CC(=O)O1	KF-33	-	>100 µg/mL

For reference, 4 entries again:

SMILES	strain	read by	result
C[C@H]1[C@@H](Oc2ccc(S)cc2)O[C@@H]2O[C@]3(C)CC[C@H]4[C@H](C)CC[C@@H]1C24OO3	ATCC 90113	-	>50 µg/mL
C=CC[n+]1c2ccccc2cc2[nH]c3ccccc3c21	ATCC 52657	-	31.2 µg/mL
N#CC[n+]1c2ccccc2cc2[nH]c3ccccc3c21	ATCC 52657	-	31.2 µg/mL
CN[C@@H]1[C@H](O[C@@H]2OC[C@@H](O)[C@H](O)[C@H]2O)[C@@H](O)[C@H](O[C@H]2c3cc(C)c(C(N)=O)c(O)c3-c3c(cc4c(c3O)C(=O)c3cc(OC)cc(O)c3C4=O)[C@@H]2O)O[C@@H]1C	IAM 4514	-	>100 µg/mL